Some compounds share one wording; it may come from a single statement. Starred links: 1 amine or outer side, 2 acyl side, 3 side chain; linkers in the order of their positions; H or OH if unused. Non-standard residues stand in square brackets, D forms with d. Residues, ends and D or L forms follow the SMILES beside them. *: point of attachment. 5FAM = O=C1OC2(c3ccc(O)cc3Oc3cc(O)ccc32)c2ccc(C(=O)*)cc21; δOrn(α-TMG) = CN(C)C(=N[C@@H](CCCN[*:1])C(=O)[*:2])N(C)C; Ac6c = NC1(C(=O)O)CCCCC1; Orn = NCCC[C@H](N)C(=O)O
System: C. neoformans 1841
Experiment: Confocal laser scanning microscopy, uptake of Cf-labeled peptides
Type: cell-based, Cryptococcus neoformans
Conditions: Cf-labeled peptide 25 μmol/L, 30°C, 3 h, CLSM

SMILES | fluorescence in cells (intracellular uptake)
CC[C@H](C)[C@H](NC(=O)[C@H](CCCNC(=O)c1ccc2c(c1)C(=O)OC21c2ccc(O)cc2Oc2cc(O)ccc21)N=C(N(C)C)N(C)C)C(=O)N[C@@H](CCCN)C(=O)N[C@H](C(=O)N[C@@H](CCCN)C(=O)N[C@@H](CCCNC(=N)N)C(=O)N1CCC[C@H]1C(=O)N[C@H](C(=O)N[C@@H](Cc1ccc(O)cc1)C(=O)N[C@@H](CCCN)C(=O)N1CCC[C@H]1C(=O)N[C@@H](CCCNC(=N)N)C(=O)N1CCC[C@H]1C(=O)N[C@@H](CCCNC(=N)N)C(=O)N1CCC[C@H]1C(=O)N1CCC[C@H]1C(=O)N[C@@H](Cc1c[nH]cn1)C(=O)N1CCC[C@H]1C(=O)N[C@@H](CCCNC(=N)N)C(=O)N[C@@H](CC(C)C)C(=O)O)C(C)C)[C@@H](C)CC [Cf-Api795] (5FAM-[δOrn(α-TMG)]I[Orn]I[Orn]RPVY[Orn]PRPRPPHPRL-OH) | intense, non-uniformly distributed fluorescence, mainly in the cytoplasmic region
CC[C@H](C)[C@H](NC(=O)[C@H](Cc1ccc(O)cc1)NC(=O)[C@@H](NC(=O)[C@@H]1CCCN1C(=O)[C@H](CCCNC(=N)N)NC(=O)[C@H](CC(N)=O)NC(=O)[C@H](CC(N)=O)NC(=O)[C@H](CCCNC(=O)c1ccc2c(c1)C(=O)OC21c2ccc(O)cc2Oc2cc(O)ccc21)N=C(N(C)C)N(C)C)C(C)C)C(=O)N1CCC[C@H]1C(=O)N[C@@H](CCCNC(=N)N)C(=O)N1CCC[C@H]1C(=O)N[C@@H](CCCNC(=N)N)C(=O)N1CCC[C@H]1C(=O)N1CCC[C@H]1C(=O)N[C@@H](Cc1c[nH]cn1)C(=O)N1CCC[C@H]1C(=O)N[C@@H](CCCNC(=N)N)C(=O)N[C@@H](CC(C)C)C(N)=O [Cf-Api88] (5FAM-[δOrn(α-TMG)]NNRPVYIPRPRPPHPRL-NH2) | intense, non-uniformly distributed fluorescence, mainly in the cytoplasmic region
CC[C@H](C)[C@H](NC(=O)[C@H](Cc1ccc(O)cc1)NC(=O)[C@@H](NC(=O)[C@@H]1CCCN1C(=O)[C@H](CCCNC(=N)N)NC(=O)[C@H](CC(N)=O)NC(=O)[C@H](CC(N)=O)NC(=O)[C@H](CCCNC(=O)c1ccc2c(c1)C(=O)OC21c2ccc(O)cc2Oc2cc(O)ccc21)N=C(N(C)C)N(C)C)C(C)C)C(=O)N1CCC[C@H]1C(=O)N[C@@H](CCCNC(=N)N)C(=O)N1CCC[C@H]1C(=O)N[C@@H](CCCNC(=N)N)C(=O)N1CCC[C@H]1C(=O)N1CCC[C@H]1C(=O)N[C@@H](Cc1c[nH]cn1)C(=O)N1CCC[C@H]1C(=O)N[C@@H](CCCNC(=N)N)C(=O)N[C@@H](CC(C)C)C(=O)O [Cf-Api137] (5FAM-[δOrn(α-TMG)]NNRPVYIPRPRPPHPRL-OH) | much weaker or no fluorescence
CC[C@H](C)[C@H](NC(=O)[C@H](Cc1ccc(O)cc1)NC(=O)[C@@H](NC(=O)[C@@H]1CCCN1C(=O)[C@H](CCCNC(=N)N)NC(=O)[C@H](CC(N)=O)NC(=O)[C@H](CC(N)=O)NC(=O)CNC(=O)c1ccc2c(c1)C(=O)OC21c2ccc(O)cc2Oc2cc(O)ccc21)C(C)C)C(=O)N1CCC[C@H]1C(=O)N[C@@H](CCC(N)=O)C(=O)N1CCC[C@H]1C(=O)N[C@@H](CCCNC(=N)N)C(=O)N1CCC[C@H]1C(=O)N1CCC[C@H]1C(=O)N[C@@H](Cc1c[nH]cn1)C(=O)N1CCC[C@H]1C(=O)N[C@@H](CCCNC(=N)N)C(=O)N[C@@H](CC(C)C)C(=O)O [Cf-Apidaecin 1b] (5FAM-GNNRPVYIPQPRPPHPRL-OH) | no fluorescence could be detected in the majority of cells
CC(C)C[C@H](NC(=O)[C@H](Cc1ccc(O)cc1)NC(=O)[C@@H]1CCCN1C(=O)[C@H](CCCNC(=N)N)NC(=O)[C@@H]1CCCN1C(=O)[C@H](CCCCN)NC(=O)[C@H](CC(=O)O)NC(=O)[C@@H]1CCCN1C(=O)[C@H](CCCNC(=N)N)NC(=O)C1(NC(=O)c2ccc3c(c2)C(=O)OC32c3ccc(O)cc3Oc3cc(O)ccc32)CCCCC1)C(=O)N1CCC[C@H]1C(=O)N[C@@H](CCCNC(=N)N)C(=O)N1CCC[C@H]1C(=O)N[C@@H](CCCNC(=N)N)C(=O)N1CCC[C@H]1C(=O)N1CCC[C@H]1C(=O)N[C@@H](CCCNC(=N)N)C(=O)N1CCC[C@H]1C(=O)N[C@H](C(=O)N[C@@H](CCCNC(=N)N)C(N)=O)C(C)C [Cf-Chex1Arg20] (5FAM-[Ac6c]RPDKPRPYLPRPRPPRPVR-NH2) | intense, non-uniformly distributed fluorescence, mainly in the cytoplasmic region
CC[C@H](C)[C@H](NC(=O)[C@@H](CCCNC(=N)N)NC(=O)[C@H](CCCNC(=N)N)NC(=O)[C@@H]1CCCN1C(=O)[C@@H]1CCCN1C(=O)[C@H](CCCNC(=N)N)NC(=O)[C@@H]1CCCN1C(=O)[C@H](CCCNC(=N)N)NC(=O)[C@@H]1CCCN1C(=O)[C@H](CC(C)C)NC(=O)[C@H](Cc1ccc(O)cc1)NC(=O)[C@@H]1CCCN1C(=O)[C@@H]1CCCN1C(=O)[C@H](CCCCN)NC(=O)[C@H](CC(=O)O)NC(=O)[C@@H](NC(=O)c1ccc2c(c1)C(=O)OC21c2ccc(O)cc2Oc2cc(O)ccc21)C(C)C)C(=O)N[C@@H](Cc1ccc(O)cc1)C(=O)N[C@@H](CC(N)=O)C(=O)N[C@H](CCCNC(=N)N)C(N)=O [Cf-Onc112] (5FAM-VDKPPYLPRPRPPR[dR]IYN[dR]-NH2) | intense, non-uniformly distributed fluorescence, mainly in the cytoplasmic region
CC(C)C[C@H](NC(=O)[C@H](Cc1ccc(O)cc1)NC(=O)[C@@H]1CCCN1C(=O)[C@H](CCCNC(=N)N)NC(=O)[C@@H]1CCCN1C(=O)[C@H](CCCCN)NC(=O)[C@H](CCCCN)NC(=O)[C@@H]1CCCN1C(=O)[C@H](CCCNC(=N)N)NC(=O)C1(NC(=O)c2ccc3c(c2)C(=O)OC32c3ccc(O)cc3Oc3cc(O)ccc32)CCCCC1)C(=O)N1CCC[C@H]1C(=O)N[C@@H](CCCNC(=N)N)C(=O)N1CCC[C@H]1C(=O)N[C@@H](CCCNC(=N)N)C(=O)N1CCC[C@H]1C(=O)N1CCC[C@H]1C(=O)N[C@@H](CCCNC(=N)N)C(=O)N1CCC[C@H]1C(=O)N[C@H](C(=O)N[C@@H](CCCNC(=N)N)C(N)=O)C(C)C [Cf-Chex1Arg20 D4K] (5FAM-[Ac6c]RPKKPRPYLPRPRPPRPVR-NH2) | intense, non-uniformly distributed fluorescence, mainly in the cytoplasmic region

Reference: article PMC10800876, “Evaluation of proline-rich antimicrobial peptides as potential lead structures for novel antimycotics against Cryptococcus neoformans” (Frontiers in Microbiology, 2024)
